Reference: publication PMC7915666, “Antitrypanosomal and Antileishmanial Activity of Chalcones and Flavanones from Polygonum salicifolium” (Pathogens, 2021)
Converted amounts (≈) assume the structure as drawn.

Test system: L. mexicana strain MNY/BZ/62/M379 promastigotes
Experiment: Alamar Blue (resazurin) assay, L. mexicana promastigotes

Structure (SMILES) | activity against Leishmania promastigotes / L. mexicana (in words) | fold less activity than compound 1 against L. mexicana (relative to compound 1) [fold] | EC50 (Leishmania mexicana, read-out: EC50 against Leishmania mexicana) [µg/mL]
COc1cc(O)c(OC)c2c1C(=O)CC(c1ccccc1)O2 (centres unmarked) [Compound 4, 5,8-dimethoxy-7-hydroxyflavanone] | poor | – | –
COc1cc(O)c(OC)c(O)c1C(=O)/C=C/c1ccccc1 [Compound 2, 2′,5′-dimethoxy-4′,6′-dihydroxychalcone] | – | ~5 | –
COc1cc(O)c(C(=O)/C=C/c2ccccc2)c(OC)c1 [Compound 1, 2′,4′-dimethoxy-6′-hydroxychalcone] | reasonable activity | – | 5.2 (≈ 18.3 µM)
COc1cc(OC)c2c(c1)OC(c1ccccc1)CC2=O (centres unmarked) [Compound 3, 5,7-dimethoxyflavanone] | poor | – | –
